Chains of the proteins cited; added tags and fusions are not shown. Residues count along the entry.
UniProt P04925, 23-230: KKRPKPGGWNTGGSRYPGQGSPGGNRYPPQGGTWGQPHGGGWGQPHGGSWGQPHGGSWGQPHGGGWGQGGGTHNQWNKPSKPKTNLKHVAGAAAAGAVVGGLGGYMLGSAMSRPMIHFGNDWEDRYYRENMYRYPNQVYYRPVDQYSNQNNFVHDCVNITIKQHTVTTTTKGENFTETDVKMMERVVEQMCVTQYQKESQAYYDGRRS

In publication PMC6181439 (2018):

B1: Full IgG POM1 monoclonal antibody (antibody, V domains shown)
VH: QVQLQQSGTELVMPGASVKMSCKASGYTFTDYWMHWVKQRPGQGLEWIGSIDPSDSYTSHNEKFKGKATLTVDESSSTAYMQLSSLTSEDSAVYFCSRSGYGYYAMEYWGQGTSVTVSS
VL: DIVLTQSPAILSVSPGERVSFSCRASQNIGTSIHWYQQRTNESPRLIIKYASESISGIPSRFSGSGSGTDFTLSINSVESEDIADYYCQQSNTWPYTFGGGTKLELK
B2: scPOM1 (scFv, V domains shown)
VH: QVQLQQSGTELVMPGASVKMSCKASGYTFTDYWMHWVKQRPGQGLEWIGSIDPSDSYTSHNEKFKGKATLTVDESSSTAYMQLSSLTSEDSAVYFCSRSGYGYYAMEYWGQGTSVTVSS
VL: DIVLTQSPAILSVSPGERVSFSCRASQNIGTSIHWYQQRTNESPRLIIKYASESISGIPSRFSGSGSGTDFTLSINSVESEDIADYYCQQSNTWPYTFGGGTKLELK

Tests used:
[1] = target: T1, Recombinant mouse PrP full length (23-230) (mouse, UniProt P04925 23-230); assay: SPR
[2] = target: T1, Recombinant mouse PrP full length …; assay: SPR; remark: listed apart in the source

| Binder | koff [1] [s⁻¹] | Kd [2] [nM] |
| --- | --- | --- |
| B1 | 9.1e-05 | 0.5 |
| B2 | 0.00031 | 4.8 |
